Anti-infective test results gathered from many reports (values: NIAID ChemDB through PubChem).

Shared fields: growth or infection tests; organism: Mycobacterium smegmatis

Blank or dashed fields: not listed here. A number after MIC or MFC names an inhibition level or a share of isolates. Two numbers with a dash give a range or band. Rows are shuffled and stem from different studies.

| compound | mutations | method | read-out | strain | result |
|---|---|---|---|---|---|
| CC1CN(c2nc3c(cc2F)c(=O)c(C(=O)O)cn3-c2ccc(F)cc2F)CC(C)N1 | - | - | MIC | ATCC 19420 | 2 µg/mL |
| COc1nc2ccc(Br)cc2cc1[C@@H](c1ccccc1)[C@@](O)(CCN(C)C)c1cccc2ccccc12 | - | broth dilution | MIC80 | delta-cyt-bd | 0.06 µM |
| NNC(=O)c1ccncc1 | - | absorbance | MIC | CCM | 7.81–15.6 µg/mL |
| Cc1cc(N)cc2c(=O)c3ccccc3oc12 | - | - | MIC | ATCC 607 | >32 µg/mL |
| N#CC(C#N)=NNc1cccc(Cl)c1 | - | - | MIC | PSB51 LFR | 30 µg/mL |
| NC(=O)c1ccc2c(=O)c3ccccc3oc2c1 | - | - | MIC | ATCC 607 | >32 µg/mL |
| CCN1CCN(c2c(F)cc3c(=O)c(C(=O)O)cn(C4CC4)c3c2OC)CC1 | - | - | MIC | ATCC 19420 | ≤0.03 µg/mL |
| Cc1c(N2CC[C@@H]([C@H](C)N)C2)c(F)cn2c(=O)c(C(=O)O)cc(C3CC3)c12.Cl | - | - | MIC | ATCC114 | 0.1 µg/mL |
| CC[C@@H](C(=O)[C@@H](C)[C@@H](O)[C@H](C)[C@@H]1O[C@@H]([C@@H](CC)C(=O)O)CC[C@@H]1C)[C@H]1O[C@@]2(C=C[C@@H](O)[C@@]3(CC[C@@](C)([C@H]4CC[C@](O)(CC)[C@H](C)O4)O3)O2)[C@H](C)C[C@@H]1C | - | resazurin | MIC | mc2155 | 3.125 µg/mL |
| Clc1ccc2[nH]c3ccccc3c2c1 | - | resazurin / visual reading / absorbance | MIC99 | - | >500 µg/mL |
| NC1CCN(c2c(F)cc3c(=O)c(C(=O)O)cn(C4CC4)c3c2Cl)C1 | - | - | MIC | ATCC 19420 | ≤0.03 µg/mL |
| CNc1ccc2oc(C[C@@H]3OC4(CC[C@@H]3C)O[C@H](C(C)C(=O)c3ccc[nH]3)[C@H](C)C[C@H]4C)nc2c1C(=O)O | C20 insertion | resazurin | MIC | mc2155 | 2.5 µg/mL |
| CNCC1CCN(c2nc3c(cc2F)c(=O)c(C(=O)O)cn3-c2ccc(F)cc2F)C1 | - | - | MIC | ATCC 19420 | 0.5 µg/mL |
| Cc1ccc2c(=O)c3ccccc3oc2c1 | - | - | MIC | ATCC 607 | >32 µg/mL |
| COC1=Cc2ccnc3c2C2C1N=CN2C=C3 | - | MTT / low oxygen / turbidity | MIC | mc2155 | 12.5 µg/mL |
| Cc1cccc2oc3ccccc3c(=O)c12 | - | - | MIC | ATCC 607 | >32 µg/mL |
| CNCC1CN(c2c(F)cn3c(=O)c(C(=O)O)cc(C4CC4)c3c2C)CCO1.Cl | - | - | MIC | ATCC114 | 1.56 µg/mL |
| CC1CN(c2c(F)cc3c(=O)c(C(=O)O)cn(C4CC4)c3c2Br)CCN1 | - | - | MIC99 | KD1163 (GRYA+) | 0.032 µg/mL |
| COC(=O)c1cccc2oc3ccccc3c(=O)c12 | - | - | MIC | ATCC 607 | >32 µg/mL |
| O=C(O)c1cn(C2CC2)c2c(F)c(N3CCNCC3)c(F)cc2c1=O | - | - | MIC99 | KD2003 (GYRA D95G) | 1.3 µg/mL |
| COC(=O)Cc1ccc2[nH]c3ccccc3c2c1 | - | resazurin / visual reading / absorbance | MIC99 | - | >500 µg/mL |
| CCC1CN(c2c(F)cc3c(=O)c(C(=O)O)cn(C4CC4)c3c2F)CCN1 | - | - | MIC99 | KD1991 (GYRA D95Y) | 1.3 µg/mL |
| CNCC1CCN(c2c(F)cc3c(=O)c(C(=O)O)cn(C4CC4)c3c2OC)C1 | - | - | MIC | ATCC 19420 | 0.06 µg/mL |
| Cc1ccc2oc3ccccc3c(=O)c2c1 | - | - | MIC | ATCC 607 | >32 µg/mL |
| CC(C)Cc1cnc(C(=O)/C=C/c2ccccc2Br)cn1 | - | absorbance | MIC | CCM | 62.5 µg/mL |
| CC1CN(c2c(F)cc3c(=O)c(C(=O)O)cn(C4CC4)c3c2F)CCN1 | - | - | MIC99 | KD1991 (GYRA D95Y) | 1.1 µg/mL |
| CCCc1cnc(C(=O)/C=C/c2ccc(Br)cc2)cn1 | - | absorbance | MIC | CCM | >250 µg/mL |
| Nc1ccc2oc3ccc(C(=O)O)cc3c(=O)c2c1 | - | - | MIC | ATCC 607 | >32 µg/mL |
| COC(=O)Cc1ccc2[nH]c3ccc(Br)cc3c2c1 | - | resazurin / visual reading / absorbance | MIC99 | - | >500 µg/mL |
| COc1c(N2CCN(C(C)C)CC2)c(F)cc2c(=O)c(C(=O)O)cn(C3CC3)c12 | - | - | MIC99 | KD1987 (GYRA A91V) | 1.4 µg/mL |
| O=C(O)Cc1ccc2[nH]c3ccccc3c2c1 | - | resazurin / visual reading / absorbance | MIC99 | - | >500 µg/mL |
| O=C(/C=C/c1ccc(F)cc1)c1cnccn1 | - | absorbance | MIC | CCM | 15.6 µg/mL |
| Cc1c(N2CCC(N)CC2)c(F)cn2c(=O)c(C(=O)O)cc(C3CC3)c12 | - | - | MIC | ATCC114 | 1.56 µg/mL |
| CC(C)N1CCN(c2c(F)cc3c(=O)c(C(=O)O)cn(C4CC4)c3c2F)CC1 | - | - | MIC99 | KD2008 (GYRA G89C) | 9.6 µg/mL |
| CN[C@@H]1[C@@H](O)[C@@H](O[C@@H]2[C@@H](O)[C@H](O[C@H]3O[C@H](CN)CC[C@H]3N)[C@@H](N)C[C@H]2N)OC[C@]1(C)O | - | - | MIC | ATCC 607 | >32 µg/mL |
| CCNCC1CCN(c2c(F)cn3c(=O)c(C(=O)O)cc(C4CC4)c3c2C)CC1.Cl | - | - | MIC | ATCC114 | 0.39 µg/mL |
| COC1=Cc2ccnc3ccnc(c23)C1(OC)OC | - | MTT / low oxygen / turbidity | MIC | mc2155 | 100 µg/mL |
| COc1ccc(-c2ccc3[nH]c4cc(C(C)C(=O)O)ccc4c3c2)cc1 | - | resazurin / visual reading / absorbance | MIC99 | - | >500 µg/mL |
| COc1cc2ccnc3c2c(c1O)N=CC3=N | - | MTT / low oxygen / turbidity | MIC | mc2155 | 1.5 µg/mL |
| Cc1c(N2CC3CCCN(C)C3C2)c(F)cn2c(=O)c(C(=O)O)cc(C3CC3)c12.Cl | - | - | MIC | ATCC114 | 0.1 µg/mL |
| COC(=O)Cc1ccc2[nH]c3ccc(OC)cc3c2c1 | - | resazurin / visual reading / absorbance | MIC99 | - | >500 µg/mL |
| CC1CN(c2c(F)cc3c(=O)c(C(=O)O)cn(-c4ccc(F)cc4F)c3c2F)CCN1 | - | - | MIC | ATCC 19420 | 2 µg/mL |
| COC(=O)Cc1ccc2[nH]c3ccc(F)cc3c2c1 | - | resazurin / visual reading / absorbance | MIC99 | - | >500 µg/mL |
| C[C@H]1c2cccc(O)c2C(O)=C2C(=O)[C@]3(O)C(O)=C(C(N)=O)C(=O)[C@@H](N(C)C)[C@@H]3[C@@H](O)[C@@H]21 | - | - | MIC | A9826 | 0.06 µg/mL |
| CC(C(=O)O)c1ccc2c(c1)[nH]c1ccc(Cl)cc12 | - | resazurin / visual reading / absorbance | MIC99 | - | 500 µg/mL |
| CC(C)N1CCN(c2cc3c(cc2F)c(=O)c(C(=O)O)cn3C2CC2)CC1 | - | - | MIC99 | KD1991 (GYRA D95Y) | 4.6 µg/mL |
| Cc1c(N2CCOCC2CN)c(F)cn2c(=O)c(C(=O)O)cc(C3CC3)c12.Cl | - | - | MIC | ATCC114 | 0.05 µg/mL |
| O=C(/C=C/c1ccccc1Br)c1cnccn1 | - | absorbance | MIC | CCM | 15.6 µg/mL |
| CC[n+]1c(-c2ccccc2)c2cc(N)ccc2c2ccc(N)cc21 | - | - | MIC | PMN1 LFR (CCCP) | 8 µg/mL |
| CCOc1c(N2CCNC(C)C2)c(F)cc2c(=O)c(C(=O)O)cn(C3CC3)c12 | - | - | MIC | ATCC 19420 | 0.13 µg/mL |
| CCN1CCN(c2c(F)cc3c(=O)c(C(=O)O)cn(C4CC4)c3c2F)CC1 | - | - | MIC99 | KD2008 (GYRA G89C) | 3.2 µg/mL |
| O=C(O)c1cn(C2CC2)c2c(Cl)c(N3CCNCC3)c(F)cc2c1=O | - | - | MIC | ATCC 19420 | 0.13 µg/mL |
| CC[C@@H](CO)NCCN[C@@H](CC)CO | - | broth dilution | MIC99 | ATCC 607 | <0.2 µg/mL |
| COc1c(N2CCC(N)C2)c(F)cn2c(=O)c(C(=O)O)cc(C3CC3)c12.Cl | - | - | MIC | ATCC114 | 0.78 µg/mL |
| CCN1CCN(c2c(F)cc3c(=O)c(C(=O)O)cn(C4CC4)c3c2Cl)CC1 | - | - | MIC | ATCC 19420 | 0.25 µg/mL |

The first 8 rows once more:

| compound | mutations | method | read-out | strain | result |
|---|---|---|---|---|---|
| CC1CN(c2nc3c(cc2F)c(=O)c(C(=O)O)cn3-c2ccc(F)cc2F)CC(C)N1 | - | - | MIC | ATCC 19420 | 2 µg/mL |
| COc1nc2ccc(Br)cc2cc1[C@@H](c1ccccc1)[C@@](O)(CCN(C)C)c1cccc2ccccc12 | - | broth dilution | MIC80 | delta-cyt-bd | 0.06 µM |
| NNC(=O)c1ccncc1 | - | absorbance | MIC | CCM | 7.81–15.6 µg/mL |
| Cc1cc(N)cc2c(=O)c3ccccc3oc12 | - | - | MIC | ATCC 607 | >32 µg/mL |
| N#CC(C#N)=NNc1cccc(Cl)c1 | - | - | MIC | PSB51 LFR | 30 µg/mL |
| NC(=O)c1ccc2c(=O)c3ccccc3oc2c1 | - | - | MIC | ATCC 607 | >32 µg/mL |
| CCN1CCN(c2c(F)cc3c(=O)c(C(=O)O)cn(C4CC4)c3c2OC)CC1 | - | - | MIC | ATCC 19420 | ≤0.03 µg/mL |
| Cc1c(N2CC[C@@H]([C@H](C)N)C2)c(F)cn2c(=O)c(C(=O)O)cc(C3CC3)c12.Cl | - | - | MIC | ATCC114 | 0.1 µg/mL |